{"source": "the supplement of paper PMC10933113", "note": "± gives the uncertainty stated by the source. The list shows a part of the results, in another mix than the full data.", "data": [{"tested_on": "THP-1", "experiment": "CD54 surface expression induction over DMSO control (% over DMSO); higher = stronger dendritic cell activation", "details": "10 µM; exposure time: 24 h", "description": "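hCLAT-like CD54 and CD86 surface expression on THP1 cells after 24 h exposure at a single concentration (highest non-cytotoxic concentration, or 100-200 µM if not cytotoxic). Flow cytometry (iQue) was run on 5,000 live cells.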", "values": [{"smiles": "C[CH2][Sn]([Br])([CH2]C)[CH2]C", "note": "[Triethyltin bromide]", "CD54 surface expression induction": "5.45 ± 3"}]}]}
